Results taken from patent publication US10835556B2, “Hydrolyzed tetravalent metal salts and methods of biofilm inhibition” (THE BOARD OF TRUSTEES OF THE UNIVERSITY OF ILLINOIS, priority 2018, dated 2020).
Only a part of the results on these compounds is given; other tests are left out.

System: S. mutans
Experiment: Effect on planktonic growth (growth curve, UV-Vis absorption)
Format: cell-based, Streptococcus mutans
Details: products of ceric salt hydrolysis

ammonium nitrate
activity in limiting planktonic growth: not active
